Results deposited as PubChem BioAssay AID1224833 (University of Georgia, 2016)
Here is an unselected part of about 12,000 reagents tested. In the full data, about 5,600 (46%) were called active. 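Active calls cover z-scores past 1 in both directions, so they include lowered as well as raised rotavirus replication.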 Entries without a mark were called inactive.

Purpose: 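Host factors restraining rotavirus as candidate antiviral genes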 (primary screen)
Cell system: monkey MA104 kidney cells
Knock-down reagent: siRNA pool against human genes, 50 nM
Time to read-out: 48 h knock-down before infection; read 24 h after infection
Challenge: infection with rotavirus strain RV3 two days after transfection; infectious dose for this stage not given
Read-out: 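z-score of rotavirus antigen signal per well, from a fluorescent immunoassay, relative to non-targeting control wells on the same plate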
Scale: z-score vs non-targeting control: higher = more rotavirus replication than with non-targeting control
Call rule: In these data the active calls have z-score vs non-targeting control at about -1 or lower, or at about 1 or higher
Meaning of the calls: active = z-score beyond 1 either way; inactive = z-score within 1 of zero

MEPE: z-score vs non-targeting control = -1.92 (active)
MPI: z-score vs non-targeting control = -1.01 (active)
SPATA25: z-score vs non-targeting control = -1.4 (active)
ZNF174: z-score vs non-targeting control = 0.821
ADRB3: z-score vs non-targeting control = -1.29 (active)
MEGF10: z-score vs non-targeting control = -2.04 (active)
CWC22: z-score vs non-targeting control = -1.7 (active)
FLNC: z-score vs non-targeting control = 0.987
FHIP2A: z-score vs non-targeting control = 1.47 (active)
KRT7: z-score vs non-targeting control = 0.406
TOMM34: z-score vs non-targeting control = -0.669
CAPN12: z-score vs non-targeting control = -0.647
TLE5: z-score vs non-targeting control = 0.431
CYGB: z-score vs non-targeting control = 0.626
DNM2: z-score vs non-targeting control = 1.69 (active)
OR10Z1: z-score vs non-targeting control = 0.599
FANCI: z-score vs non-targeting control = 0.785
ZCCHC24: z-score vs non-targeting control = 0.624
RTL8C: z-score vs non-targeting control = 1.49 (active)
TNFSF13B: z-score vs non-targeting control = -0.534
ZNF436: z-score vs non-targeting control = -1.27 (active)
OR6C3: z-score vs non-targeting control = 0.266
LAMB3: z-score vs non-targeting control = 1.79 (active)
DAB2IP: z-score vs non-targeting control = 0.655

Records listed so far with an active call, once more:
MEPE: z-score vs non-targeting control = -1.92 (active)
MPI: z-score vs non-targeting control = -1.01 (active)
SPATA25: z-score vs non-targeting control = -1.4 (active)
ADRB3: z-score vs non-targeting control = -1.29 (active)
MEGF10: z-score vs non-targeting control = -2.04 (active)
CWC22: z-score vs non-targeting control = -1.7 (active)
FHIP2A: z-score vs non-targeting control = 1.47 (active)
DNM2: z-score vs non-targeting control = 1.69 (active)
RTL8C: z-score vs non-targeting control = 1.49 (active)
ZNF436: z-score vs non-targeting control = -1.27 (active)
LAMB3: z-score vs non-targeting control = 1.79 (active)

Additional records follow:
RTEL1: z-score vs non-targeting control = -1.42 (active)
BRD8: z-score vs non-targeting control = 0.945
PPP1R10: z-score vs non-targeting control = 1.45 (active)
TMIGD1: z-score vs non-targeting control = 0.685
CCDC106: z-score vs non-targeting control = 0.823
MAN1C1: z-score vs non-targeting control = -1.23 (active)
LCN15: z-score vs non-targeting control = -0.771
FAM153A: z-score vs non-targeting control = -1.31 (active)
ZC4H2: z-score vs non-targeting control = -0.512
COPE: z-score vs non-targeting control = 1.64 (active)
ASCL3: z-score vs non-targeting control = -1.66 (active)
CNN3: z-score vs non-targeting control = 0.433
AQP11: z-score vs non-targeting control = -0.486
ZNF584: z-score vs non-targeting control = -2.2 (active)
ZNF639: z-score vs non-targeting control = 0.403
CNTN6: z-score vs non-targeting control = -2.27 (active)
OR4D11: z-score vs non-targeting control = -0.284
RALGAPA2: z-score vs non-targeting control = 1.02 (active)
HACD4: z-score vs non-targeting control = -1.12 (active)
ANPEP: z-score vs non-targeting control = 1.83 (active)
SHBG: z-score vs non-targeting control = -1.09 (active)
TBC1D3G: z-score vs non-targeting control = 1.34 (active)
ST3GAL5: z-score vs non-targeting control = 1.21 (active)
